Pooled drug test results. Numbers come from NIAID ChemDB, via PubChem.

All rows: host cell toxicity; cells: TZM-bl; measure: CC50

Neighbouring rows are from separate reports. CCn: concentration that lowers growth or viability of the cells by n%.

structure,method,result
NCCC(NC(=O)c1ccc(-c2ccc(F)cn2)[nH]1)c1nc(CO)cs1,MTS / absorbance,>138 µM
O=C1NC(=NCc2ccc(Cl)c(F)c2)S/C1=C\c1ccc(-c2ccc(C(=O)O)c(O)c2)o1,XTT,>50 µM
Cc1cc(/C=C/C#N)cc(C)c1Nc1nc(Nc2ccc(C#N)cc2)nc(N(C)C)n1,WST,8.06 µM
C[C@@H]1O[C@@H](Oc2c(-c3ccc(O)cc3)oc3cc(O)cc(O)c3c2=O)[C@H](O[C@@H]2O[C@H](COC(=O)/C=C/c3ccc(O)cc3)[C@@H](O)[C@H](O)[C@H]2O)[C@H](O)[C@H]1O,absorbance,>100 µg/mL
N[C@@H](Cc1ccc(NCC2CCCCC2)cc1)C(=O)O,XTT,>140 µM
O=C(O[C@@H]1OC2COC(=O)c3cc(O)c(O)c(O)c3-c3c(cc(O)c(O)c3O)C(=O)O[C@@H](C1O)[C@@H]2O)c1cc(O)c(O)c(O)c1,absorbance,>100 µg/mL
NC[C@H](NC(=O)c1ccc(-c2ccc(Cl)cn2)[nH]1)c1csc(CO)n1,MTS,>106 µM
Cc1cc(/C=C/C#N)cc(C)c1Nc1nc(Nc2ccc(C#N)cc2)nc(N2CCN(C)CC2)n1,WST,21.24 µM
CC(C)C[C@H](NC(=O)c1ccc(NC(=O)[C@H](Cc2c[nH]c3ccccc23)NC(=O)CCC(=O)NCCCCCCCCCCOCCNC(=O)CCC(=O)O)c(OCCc2c[nH]c3ccccc23)c1)C(=O)O,absorbance,>50 µM
N#C/C=C/c1cc(F)c(Nc2nc(N)nc(Nc3ccc(C#N)cc3)n2)c(F)c1,WST,21.41 µM
O=C1NC(=NCCc2ccc(F)cc2)S/C1=C\c1ccc(-c2ccc(C(=O)O)c(O)c2)o1,XTT,>50 µM
O=C(N[C@@H](Cc1ccc(N(CC2CCCCC2)C(=O)C(F)(F)F)cc1)C(=O)O)OCC1c2ccccc2-c2ccccc21,XTT,>67 µM
CC1=C(CO)CC(C(C)C2CCC3C4CC=C5CC(OC6OC(COC7OC(CO)C(O)C(O)C7O)C(O)C(O)C6O)CC(O)C5(C)C4CCC23C)OC1=O,absorbance,>100 µg/mL
O=C(N[C@@H](Cc1ccc(N(CC2CCCCC2)C(=O)OCc2ccccc2)cc1)C(=O)O)OCC1c2ccccc2-c2ccccc21,XTT,35 µM
NCCC(NC(=O)c1ccc(-c2ncc(Cl)cn2)[nH]1)c1nc(CO)cs1,MTS / absorbance,>66 µM
Cc1cc(/C=C/C#N)cc(C)c1Nc1nc(Nc2ccc(C#N)cc2)nc(N2CCCCC2)n1,WST,>100 µM
NC[C@H](NC(=O)c1ccc(-c2ccc(Cl)cn2)[nH]1)c1cnc(CO)s1,MTS,>106 µM
CC(C)(N)CC(NC(=O)c1ccc(-c2ccc(C(F)(F)F)cn2)[nH]1)c1nc(CO)cs1,MTS / absorbance,59 µM
CCCCCCCCCCCCCCCCCC1O[C@@H](CO)[C@H](O)[C@H](O)[C@@H]1O,resazurin,>400 µM
Cc1cc(/C=C/C#N)cc(C)c1Nc1nc(N)nc(Nc2ccc(C#N)cc2)n1,WST,24.54 µM
CC(C)c1c(Cc2ccccc2)n(COCc2ccccc2)c(=O)[nH]c1=O,XTT,65.8 µM
NCCC(NC(=O)c1ccc(-c2ccc(C(F)(F)F)cn2)[nH]1)c1cnc(CO)s1,MTS / absorbance,>122 µM
CNc1nc(Nc2ccc(C#N)cc2)nc(Oc2c(C)cc(/C=C/C#N)cc2C)n1,WST,20.04 µM
CCc1ccc(CCN=C2NC(=O)/C(=C/c3ccc(-c4ccc(C(=O)O)c(O)c4)o3)S2)cc1,XTT,>50 µM
CC(=O)N(CC1CCCCC1)c1ccc(C[C@H](NC(=O)OCC2c3ccccc3-c3ccccc32)C(=O)O)cc1,XTT,>74 µM
NC[C@@H](NC(=O)c1ccc(-c2ccc(Cl)cn2)[nH]1)c1csc(CO)n1,MTS,>106 µM
Cc1cc(-c2ccc(C(F)(F)F)cn2)[nH]c1C(=O)NC(C)(CCN)c1nc(CO)cs1,MTS / absorbance,>68.3 µM
O=C1NC(=NCCc2ccccc2)S/C1=C\c1ccc(-c2ccc(C(=O)O)c(O)c2)o1,XTT,>50 µM

Again, the opening 3 rows:

structure | method | result
NCCC(NC(=O)c1ccc(-c2ccc(F)cn2)[nH]1)c1nc(CO)cs1 | MTS / absorbance | >138 µM
O=C1NC(=NCc2ccc(Cl)c(F)c2)S/C1=C\c1ccc(-c2ccc(C(=O)O)c(O)c2)o1 | XTT | >50 µM
Cc1cc(/C=C/C#N)cc(C)c1Nc1nc(Nc2ccc(C#N)cc2)nc(N(C)C)n1 | WST | 8.06 µM